The chains behind the UniProt entries cited, without tags or fusion partners. Residues count along the entry.
UniProt P15309, 248-286 limits assumed: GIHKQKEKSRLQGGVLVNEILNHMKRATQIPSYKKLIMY

In patent US20130157924A1, “REDUCING TRANSMISSION OF SEXUALLY TRANSMITTED INFECTIONS” (THE REGENTS OF THE UNIVERSITY OF CALIFORNIA, priority 2010, published 2013):

Target: amyloid fibrils formed from SEVI peptides (Homo sapiens, UniProt P15309)
Test: Fluorescence assay, affinity/avidity of BTA monomer and oligomers for SEVI fibrils
Format: binding
Conditions: read-out: SEVI Fibrils Kd; estimated affinity/avidity constants
Experimental: To test whether binding affinity/avidity is reduced in oligomeric forms, the binding of monomeric and oligomeric forms was assayed to determine the affinity/avidity constants (Kd) for the binding of monomer and oligomers 1-5 to amyloid fibrils formed from SEVI peptides. Affinity/avidity constants were estimated using a standard fluorescence assay, as described recently (J. S. Olsen et al, J. Biol. Chem., 2010, 285, 35488-35496). The BTA based monomer has a higher Kd than oligomeric forms. Estimated Kds are show in Table 2.

SMILES: Cc1ccc2nc(-c3ccc(NCCC(=O)NCCOCCOCCOCCOCCC(=O)NCCN(CCNC(=O)CCOCCOCCOCCOCCNC(=O)CCNc4ccc(-c5nc6ccc(C)cc6s5)cc4)CCNC(=O)CCOCCOCCOCCOCCNC(=O)CCNc4ccc(-c5nc6ccc(C)cc6s5)cc4)cc3)sc2c1
- Kd: 40 nM
